Experiments:
[1] = system: HCV GT 1b subgenomic reporter replicon (strain Con1); experiment: HCV GT 1b subgenomic replicon luciferase antiviral assay in Huh5-2 cells; type: cell-based; conditions: SI = CC50/EC50, GT 1b
[2] = system: HCV GT 3a (strain S52) replicon; experiment: HCV GT 3a subgenomic replicon luciferase antiviral assay in Huh7.5-3a cells; type: cell-based; conditions: SI = CC50/EC50, GT 3a

Compound | SI HCV Replicon 1b [1] | SI HCV Replicon 3a [2]
Nc1ccc2c(c1)c(=O)ncn2-c1ccccc1 [5a, 6-Amino-1-phenylquinazolin-4(1H)-one] | >20.32 | –
Cc1ccc(OCC(=O)Nc2ccc3c(c2)c(=O)nc(C)n3-c2ccccc2)cc1 [11a, N-(2-Methyl-4-oxo-1-phenyl-1,4-dihydroquinazolin-6-yl)-2-(p-tolyloxy)acetamide] | 160.71 | –
Cc1nc(=O)c2cc(NC(=O)COc3ccc(Cl)cc3)ccc2n1-c1ccccc1 [11b, 2-(4-Chlorophenoxy)-N-(2-methyl-4-oxo-1-phenyl-1,4-dihydroquinazolin-6-yl)acetamide] | 71.75 | 8.5
Cc1cccc(-n2c(C)nc(=O)c3cc(NC(=O)COc4ccc(Cl)cc4)ccc32)c1 [11e, 2-(4-Chlorophenoxy)-N-(2-methyl-4-oxo-1-(m-tolyl)-1,4-dihydroquinazolin-6-yl)acetamide] | 5.86 | 4.36
COC(=O)N[C@H](C(=O)N1CCC[C@H]1c1nc(-c2ccc(-c3ccc(-c4c[nH]c([C@@H]5CCCN5C(=O)[C@@H](NC(=O)OC)C(C)C)n4)cc3)cc2)c[nH]1)C(C)C [Daclatasvir, reference compound] | 680,769.23 | 2120.27

From article PMC9782603 (Viruses, 2022)
